From patent publication US20260125356A1, “TREATMENT OF LEISHMANIASIS” (THE UNIVERSITY OF DURHAM, priority 2022, published 2026)

System: HepG2 cells
Assay: HepG2 cytotoxicity dose response assay
Conditions: selectivity index HepG2 over L. major promastigotes
Procedure: Using a standard alamarBlue™ assay, activity and selectivity were assessed using L. major promastigotes and HepG2 cells, respectively.
All steps were carried out under sterile conditions. HepG2 cells were thawed rapidly into DMEM. Cells were grown at 37° C., 5% CO2 for >5 days in T-75 CytoOne® Flask, TC-Treated, Vented flasks (Starlab) in a Sanyo MCO-18M incubator. […] The trypsin was deactivated by addition of DMEM. The cells were homogenised and 5 mL of cell culture was added to 20 mL fresh DMEM. Cells were split 1:4 every 3 days. Frozen stocks were prepared in the same way as the passage, but resuspended into DMEM with 10% DMSO, aliquoted into cryovials (Starlab) and cooled slowly to −150° C. for long term storage.
All steps were carried out under sterile conditions. 80-100% confluent HepG2 were plated into Corning™ Costar™ 96-Well Flat-Bottom Microplates (Fisher Scientific) by adding 200 μL of a homogenous dispersion of cells at a concentration of 0.6×10^5 cells mL^−1 before incubation at 37° C., 5% CO2 overnight. […] Cell-viability was determined using a BioTek™ FLx800 microplate reader with Gen5® 1.08 data analysis software (BioTek) by monitoring fluorescence emission (Nex 560/hem 590 nm). […]

Row | Structure (SMILES) | S.I. (HepG2/L. major)
1 | CNC(=O)c1ccsc1/N=C/c1ccc([N+](=O)[O-])s1 [Compound 50, N-methyl-2-[(E)-[(5′-nitrothiophen-2′-yl)methylidene]amino]thiophene-3-carboxamide] | 21.9 ± 0.8
2 | CNC(=O)c1ccsc1N(C)C(=O)c1ccc([N+](=O)[O-])s1 [Compound 48, N-methyl-2-(N-methyl-5′-nitrothiophene-2′-amido)thiophene-3-carboxamide] | 4.0 ± 0.9
